Potency data for 1 molecule are collected here from PubChem BioAssay AID686971 (National Center for Advancing Translational Sciences (NCATS), 2013).

Molecules are shown by their SMILES. The entries are a selection whose mix differs from that of the whole data set. Records with an inconclusive call do not appear. Activity calls are given as the source filed them. Calls follow the shape of the dose curve; as a rule, active = well fitted cell-killing curve with a large enough effect; inconclusive = small, poorly fitted or top-dose-only effect, or effect the other way, or another doubt; inactive = no such curve, though single readings can be large or run the other way.
Potency is read from the fitted curve at half-maximal effect.

The assay can be described thus: qHTS for induction of synthetic lethality in tumor cells producing 2HG: qHTS for the HT-1080-IDH1KD cell line. To be noted: HT-1080 IDH1 knockdown viability, ATP luminescence, 48 h. (In general: qHTS replaces the single test concentration by a dilution series.)
`CC(=O)OCC12CC(OC(=O)CC(C)C)C(C)=CC1OC1C(O)C(OC(C)=O)C2(C)C12CO2` (stereo unspecified): the Potency is active: 184 nM.
